Pooled drug test results. Numbers come from NIAID ChemDB, via PubChem.

Shared fields: toxicity to cultured cells; cells: HepG2.2.15; method: MTT; endpoint: CC50

CCn: concentration that lowers growth or viability of the cells by n%.

SMILES	value
CC(C)c1cc2c(c(O)c1O)C[C@@]1(O)CCCC(C)(C)C1CC2	2140 µM
C[C@H](Cn1cnc2c(N)ncnc21)OCP(=O)(O)O	29.46 µM
C=C(C)[C@H](CC)CC[C@@H](C)C1CCC2C3CC=C4C[C@@H](OC5OC(CO)C(O)C(O)C5O)CC[C@]4(C)C3CC[C@@]21C	77.9 µM
CCOC(=O)C1=C(CN2CCN(C)CC2)NC(c2c(F)cc(F)cc2F)=NC1c1ccc(F)cc1Cl	98.74 µM
CCOC(=O)c1c(CSc2cccc(OC)c2)nc2c(O)c(CN3CCCCC3)c(Br)cn12	20.5 µM
C/C=C(/C)C(=O)Oc1c2c(cc3c1-c1c(cc(OC)c(OC)c1OC)C[C@](C)(O)[C@@H](C)C3)OCO2	102 µg/mL
CCOC(=O)C1=C(CN2CCOCC2)NC(c2c(F)cc(F)cc2F)=NC1c1ccc(F)cc1Cl	33.75 µM
CCOC(=O)c1c(CSc2ccc(C)cc2)nc2c(O)c(CN3CCCC3)c(Br)cn12	25.2 µM
CC1O[C@@H]2C[C@H]3[C@H]4C5=C(C(=O)OCC5=C[C@]13C1=C2C(=O)OCC1)[C@@H](O)[C@]12C(=O)OCCC1=C(C=O)[C@@H](C)O[C@H]42	>1360 µM
CCOC(=O)c1c(CSc2ccccc2)nc2c(O)c(CN3CCCC3)c(Br)cn12	27.8 µM
C[C@@H]1O[C@@H](O[C@@H]2C3O[C@@H](c4ccc(O)c(O)c4)COC3O[C@H](CO)[C@H]2O)[C@H](O)[C@H](O)[C@H]1O	>2000 µM
C=C(C)[C@H](CC)CC[C@@H](C)[C@H]1CCC2C3C(=O)C=C4C[C@@H](O)CC[C@]4(C)C3CC[C@@]21C	483.4 µM
CCOC(=O)c1c(CSc2ccc(F)cc2)nc2c(O)c(CN(C)C)c(Br)cn12	166.4 µM
C/C=C(/C)C(=O)Oc1c(OC)c(OC)cc2c1-c1c(cc(OC)c(OC)c1OC)C[C@H](C)[C@H](C)C2	>1000 µg/mL
Cc1ccc(CNc2ccc3cc[nH]c3c2)s1	>28.87 µM
CNC(=O)c1cnc(SC)nc1Nc1ccc2[nH]ncc2c1	>100 µg/mL
C[C@@]12C(=O)NC(=O)[C@]1(C)C1CCC2O1	0.0389 µM
C=C(C)[C@@H](CC)CC[C@@H](C)[C@H]1CCC2C3C[C@@H](O)[C@@]4(O)C[C@@H](O)CC[C@]4(C)C3CC[C@@]21C	17.1 µM
OC[C@H]1O[C@@H](OCCc2ccc(O)c(O)c2)[C@H](O)[C@@H](O[C@@H]2OC[C@](O)(CO)[C@H]2O)[C@@H]1O	1200 µM
CCOC(=O)c1c(CSc2ccc(C)cc2)nc2c(O)c(CN(C)C)c(Br)cn12	65.5 µM
CSc1ncc(C(=O)NCCO)c(Nc2ccc3cn[nH]c3c2)n1	>100 µg/mL
C[C@H]1OC(=O)[C@@H](O)CC2[C@]3(C)CC[C@@]4(CC(=O)O)C5CC(C)(C)CC[C@]5(C)CC[C@]4(C)C3CC[C@@]21C	30.4 µM
Clc1ccc(COC(Cn2ccnc2)c2ccc(Cl)cc2Cl)c(Cl)c1	17.3 µM
CCOC(=O)c1c(CSc2cccc(OC)c2)nc2c(O)c(CN3CCCC3)c(Br)cn12	51.4 µM
C=C(C)[C@H](CC)CC[C@@H](C)C1CCC2C3CC=C4C[C@@H](O)CC[C@]4(C)C3CC[C@@]21C	113.8 µM
CC1O[C@@H]2C[C@H]3[C@H]4C5=C(C(=O)OCC5=C[C@]13C1=C2C(=O)OCC1)[C@@H](O)O[C@@H]4c1cccc2c1CCOC2=O	>1680 µM

A second listing of 2 rows from above:

SMILES | value
CC1O[C@@H]2C[C@H]3[C@H]4C5=C(C(=O)OCC5=C[C@]13C1=C2C(=O)OCC1)[C@@H](O)O[C@@H]4c1cccc2c1CCOC2=O | >1680 µM
CCOC(=O)c1c(CSc2ccc(F)cc2)nc2c(O)c(CN(C)C)c(Br)cn12 | 166.4 µM

Conditions beyond the fields shown may differ between rows.